Measured values from PubChem BioAssay AID504406 (Broad Institute, 2011).
Only a part is listed here, and it is no random draw. Calls of active or inactive are those of the source. Rule as the data show it: active = inhibition above about 10% (passing the limit was not always enough); inconclusive = no clear call, values can overlap the other calls.

Sequences of proteins named here, by UniProt entry; tags and fusion partners are left off.
UniProt P9WIQ1, whole entry: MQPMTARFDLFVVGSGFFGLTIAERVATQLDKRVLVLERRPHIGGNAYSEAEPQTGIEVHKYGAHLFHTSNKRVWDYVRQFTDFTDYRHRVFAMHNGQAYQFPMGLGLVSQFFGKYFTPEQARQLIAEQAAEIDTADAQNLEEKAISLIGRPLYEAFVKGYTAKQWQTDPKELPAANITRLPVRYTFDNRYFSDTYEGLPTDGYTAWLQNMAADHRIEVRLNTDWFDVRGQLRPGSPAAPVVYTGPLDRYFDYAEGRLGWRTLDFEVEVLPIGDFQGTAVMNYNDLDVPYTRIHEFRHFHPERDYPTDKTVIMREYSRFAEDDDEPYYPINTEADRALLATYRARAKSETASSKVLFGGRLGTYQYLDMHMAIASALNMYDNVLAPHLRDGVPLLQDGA

Target: UDP-galactopyranose mutase (Mycobacterium tuberculosis (strain ATCC 25618 / H37Rv)) (UniProt P9WIQ1)
Test: M. tuberculosis UGM enzyme inhibitors, primary screen, biochemical, fluorescence polarization, single point (AID 504406)
Settings: purified UGM, fluorescence polarization probe displacement; at 10 µM; hits give high values

| SMILES | inhibition |
| --- | --- |
| O=C(NCC1(N2CCCCC2)CCCCC1)c1cccc(C(F)(F)F)c1 | inactive: 1.19% |
| COc1cc(C(=O)NCC2(N3CCCCC3)CCCCC2)ccc1OC(F)F | inactive: -0.272% |
| O=C(NCC1(N2CCOCC2)CCCCC1)c1cc(=O)[nH]c2ccccc12 | inactive: 1.45% |
| CN1CCN(CCOC(=O)C(O)(c2ccccc2)c2ccccc2)CC1 | inactive: -1.88% |
| COc1ccc(NC2CCN(C(=O)OC(C)(C)C)CC2)cc1 | inactive: 2.36% |
| O=C(NCC1(N2CCCCC2)CCCCC1)c1ccc(OC(F)F)cc1 | inactive: -1.53% |
| CCN1CCC(Nc2ccc(Cl)cc2)CC1 | inactive: -1.32% |
| N#CC1(Nc2ccccc2)CCN(CCc2ccccc2)CC1 | inactive: 1.3% |
| O=C(NCC1(N2CCCCC2)CCCCC1)c1cccc([N+](=O)[O-])c1 | inactive: 3.47% |
| O=C(NCC1(N2CCCCC2)CCCCC1)c1cncc(Br)c1 | inactive: 1% |
| CN1CCC(Nc2cccc(F)c2)CC1 | inactive: -3.45% |
| CCCOc1ccc(C(=O)NCC2(N(C)C)CCCCC2)cc1OC | inactive: -1.4% |
| CC(C)c1ccc(NC2CCN(C(=O)OC(C)(C)C)CC2)cc1 | inactive: 1.41% |
| COc1ccc(CN(CCCl)CCCl)cc1Cl | inactive: 0.437% |
| CN(C)c1cccc(C(=O)NCC2(N3CCCCC3)CCCCC2)c1 | inactive: -1.07% |
| COc1cc(OC)c(C(=O)NCC2(N(C)C)CCCCC2)cc1OC | inactive: -1.86% |
| O=C(NCC1(N2CCOCC2)CCCCC1)c1cc(F)c(F)cc1Cl | inactive: 1.7% |
| O=C(NCC1(N2CCCCC2)CCCCC1)c1ccc(Cl)nc1 | inactive: -0.212% |
| Cc1cc(C)cc(N(C(=O)c2ccccc2)C2CCN(C(=O)OC(C)(C)C)CC2)c1 | inactive: 0.2% |
| O=C(NCC1(N2CCOCC2)CCCCC1)c1cc2ccccc2o1 | inactive: -0.936% |
| O=C(OC1CN2CCC1CC2)C1c2ccccc2Oc2ccccc21 (stereo unspecified) | inactive: -1.51% |
| O=C(NCC1(N2CCCCC2)CCCCC1)c1ccc(Cl)s1 | inactive: -0.15% |

| SMILES | inhibition |
| --- | --- |
| N#CC1(Nc2ccccc2)CCN(Cc2ccccc2)CC1 | inactive: 1.35% |
| COc1ccc(Cl)cc1C(=O)NCC1(N2CCOCC2)CCCCC1 | inactive: -2.63% |
| CCOC(=O)N1CCC(Nc2ccc(OC)cc2)CC1 | inactive: -0.923% |
| COc1ccc(C(=O)NCC2(N3CCCCC3)CCCCC2)cc1 | inactive: -1.47% |
| COc1ccc(C(=O)NCC2(N3CCCCC3)CCCCC2)c(OC)c1OC | inactive: -0.373% |
| CC(C)(C)OC(=O)N1CCC(N(C(=O)c2ccccc2)c2ccc(F)cc2)CC1 | inactive: -2.8% |
| O=C(NCC1(N2CCCCC2)CCCCC1)c1ccc(=O)[nH]c1 | inactive: 2.75% |
| O=C(NCC1(N2CCCCC2)CCCCC1)c1cccs1 | inactive: -0.844% |
| CSc1ccccc1C(=O)NCC1(N2CCCCC2)CCCCC1 | inactive: -0.146% |
| COc1cc(C(=O)NCC2(N(C)C)CCCCC2)ccc1OC(F)F | inactive: -3.23% |
| CCOC(=O)N1CCC(Nc2cccc(C)c2)CC1 | inactive: -1.12% |
| Cc1ccc(OCC(C)C)c(CN(CCCl)CCCl)c1 | inactive: 0.553% |
| CCOc1ccc(C)cc1CN(CCCl)CCCl | inactive: 1.81% |
| O=C(NCC1(N2CCCCC2)CCCCC1)c1ccc(F)cc1 | inactive: -0.0945% |
| COc1ccc(NC2CCN(CCc3ccccc3)CC2)c(OC)c1 | inactive: -0.381% |
| CCOC(=O)N1CCC(Nc2ccc(F)cc2)CC1 | inactive: -2% |
| CCN1CCC(Nc2cccc(F)c2)CC1 | inactive: -2.29% |
| O=C(NCC1(N2CCCCC2)CCCCC1)c1ccco1 | inactive: -1.27% |
| CN(C)c1ccc(C(=O)NCC2(N3CCCCC3)CCCCC2)cc1 | inactive: -0.126% |
| COc1cc(OC)cc(C(=O)NCC2(N3CCCCC3)CCCCC2)c1 | inactive: 2.37% |
| Cc1ccc(C(=O)NCC2(N3CCCCC3)CCCCC2)o1 | inactive: 1.98% |
| Fc1ccccc1NC1CCN(Cc2ccccc2)CC1 | inactive: 1.68% |

| SMILES | inhibition |
| --- | --- |
| COc1cc(OC)cc(C(=O)NCC2(N3CCOCC3)CCCCC2)c1 | inactive: -0.664% |
| COc1cccc(C(=O)N(c2cc(C)cc(C)c2)C2CCN(C(=O)OC(C)(C)C)CC2)c1 | inactive: -0.0395% |
| CCC(CO)(C(=O)OC1CN2CCC1CC2)c1ccccc1 (stereo unspecified) | inactive: 0.225% |
| CN1CCC(Nc2ccc(Cl)cc2)CC1 | inactive: -1.46% |
| CCCOc1ccc(C)cc1CN(CCCl)CCCl | inactive: 0.325% |
| CCOc1ncccc1C(=O)NCC1(N2CCOCC2)CCCCC1 | inactive: -0.401% |
| CN1CCC(Nc2ccc(F)c(Cl)c2)CC1 | inactive: 2.13% |
| CC(C)(C)OC(=O)N1CCC(Nc2ccccc2)CC1 | inactive: 0.127% |
| O=C(O)C1(Nc2ccccc2)CCN(Cc2ccccc2)CC1 | inactive: 3.59% |
| CCCOc1ccc(C(=O)NCC2(N(C)C)CCCCC2)cc1 | inactive: 0.92% |
| CCOC(=O)N1CCC(Nc2ccc(C)cc2)CC1 | inactive: -1.17% |
| N/C(=N\O)c1c(N)no[n+]1[O-] | inactive: 1.36% |
| O=C(OC1CN2CCC1CC2)C1c2ccccc2C=Cc2ccccc21 (stereo unspecified) | inactive: 1.91% |
| CCc1cc(C(=O)NCC2(N3CCCCC3)CCCCC2)sc1C | inactive: 4.31% |
| COc1cc(C(=O)NCC2(N3CCOCC3)CCCCC2)cc(OC)c1C | inactive: 0.387% |
| O=C(NCC1(N2CCOCC2)CCCCC1)c1cc(Br)ccc1Cl | inactive: -2.3% |
| COc1ccc(C(=O)NCC2(N3CCOCC3)CCCCC2)cc1OC | inactive: -2.76% |
| CN(C)C1(CNC(=O)c2cccc(C#N)c2)CCCCC1 | inactive: 2.28% |
| c1ccc(CN2CCC(Nc3ccccc3)CC2)cc1 | inactive: 0.693% |
| CCCN1CCC(Nc2cc(OC)cc(OC)c2)CC1 | inactive: 7.2% |
| N#Cc1ccc(C(=O)NCC2(N3CCCCC3)CCCCC2)cc1 | inactive: 2.11% |
| CC(C)(C)OC(=O)N1CCC(N(C(=O)c2ccccc2)c2ccc(Cl)cc2)CC1 | inactive: -2.14% |
